Potato spindle tuber viroid, loop 6: variant abundance in plants

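A pool of all variants was put on leaves of three Nicotiana benthamiana plants. Progeny were sequenced from the inoculated region (day 5), the margin of the inoculated leaf (day 10) and systemic leaves (day 12).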

The pool varies loop 6 of the PSTVd intermediate strain in the pattern UNNNCGNNNG; wild type is UGACCGCGAG (upper and lower strand joined, each 5' to 3', the first 5 letters being the upper strand, closing pairs included).

Values are reads per thousand in the sample; higher means more abundant, 0 means not found. Each value is the mean of three plants. "Pool" is the share in the plasmid pool used as inoculum, on the same scale. The inoculated region was read from the minus strand, the other sites from the plus strand. IR is the inoculated region, LM the leaf margin, Sys the systemic leaves. Samples held 36,220 to 57,551 reads, so the smallest values rest on one or two reads. For reference, wild type rose from 20.7 per thousand in the pool to 195, 198, 203 (inoculated region), 629, 591, 734 (leaf margin) and 942, 870, 868 (systemic leaves). The authors trace changes outside the varied positions to PCR and sequencing errors or to mutation in the plant; presence does not show that a variant is infectious alone.

* UGUACGCCAG (pool 0.261) = IR 0.0719; LM 0.00920; Sys 0
* UUGUCGGUAG (pool 0.288) = IR 0.0780; LM 0; Sys 0
* UUCACGGCUG (pool 0.314) = IR 0.120; LM 0; Sys 0
* UUGUCGGGUG (pool 0.235) = IR 0.101; LM 0; Sys 0
* UUGACGGACG (pool 0.157) = IR 0.571; LM 0.0659; Sys 0
* UGGACGGCUG (pool 0.209) = IR 0.0959; LM 0; Sys 0
* UCUCCGAUCG (pool 0.288) = IR 0.0777; LM 0.00920; Sys 0
* UUGUCUAGUG (pool 0.0131) = IR 0; LM 0; Sys 0
* UUUCCGCGCG (pool 0.196) = IR 0.0954; LM 0.00773; Sys 0.0329
* UGGCCGAGAG (pool 0.314) = IR 0.662; LM 0.0844; Sys 0.0203
* UGUUCGGUUG (pool 0.301) = IR 0.0474; LM 0; Sys 0
* UGAGCGUAGU (pool 0.0131) = IR 0; LM 0; Sys 0
* UGAACGCUCG (pool 0.196) = IR 0.139; LM 0.0247; Sys 0
* UGCUCGGAAU (pool 0.0131) = IR 0; LM 0; Sys 0
* UACCCGUCGG (pool 0.157) = IR 0.0898; LM 0.00773; Sys 0
* UGACCGCAUG (pool 0.235) = IR 0.167; LM 0.324; Sys 0.0474
* UACACGGGUG (pool 0.196) = IR 0.0831; LM 0.0155; Sys 0
* UAGUCGGGUG (pool 0.353) = IR 0.156; LM 0; Sys 0
* UCACCUGCAG (pool 0.0131) = IR 0; LM 0; Sys 0
* UGACCGCGAU (pool 0.0131) = IR 0.301; LM 1.14; Sys 1.02
* UCUCCGCCGG (pool 0.170) = IR 0.0650; LM 0.00920; Sys 0
* UUAACGUCUG (pool 0.288) = IR 0.136; LM 0; Sys 0
* UAGUCGCGGG (pool 0.353) = IR 0.0650; LM 0.0155; Sys 0
* UCGGAGCAUG (pool 0.0131) = IR 0; LM 0; Sys 0
* UUGGCGGUUU (pool 0.0131) = IR 0; LM 0; Sys 0
* UUUGCGUACG (pool 0.170) = IR 0.102; LM 0; Sys 0.00684
* UGAGCGUCAG (pool 0.144) = IR 0.618; LM 0.179; Sys 0.0137
* UUACCGUUGG (pool 0.366) = IR 0.144; LM 0; Sys 0
* UGCUCGUUCG (pool 0.275) = IR 0.0653; LM 0.0169; Sys 0
* UAAUCGUUUG (pool 0.353) = IR 0.119; LM 0; Sys 0
* UUACCGGUAG (pool 0.275) = IR 0.108; LM 0; Sys 0

The measurements come from Wu et al. 2024 (doi:10.1371/journal.ppat.1012142).